Biological target: Lys-gingipain (Porphyromonas gingivalis, UniProt B2RLK2, A715G/D467N/G568E/I573V/L455V)
Assay: Kinetic constants for the hydrolysis of synthetic substrates by Lys-gingipain
Format: biochemical

Structure (SMILES) | Km [µM]
Cc1ccc(S(=O)(=O)NCC(=O)N2CCC[C@H]2C(=O)N[C@@H](CCCCN)C(=O)Nc2ccc([N+](=O)[O-])cc2)cc1 [N-p-tosyl-Gly--Pro--Lys--pNa, N-p-tosyl-Gly-Pro-Lys-pNa] | 50
CC(C)[C@@H](N)C(=O)N[C@@H](Cc1ccccc1)C(=O)N[C@@H](CCCCN)C(=O)Nc1ccc([N+](=O)[O-])cc1 [HD--Val--Phe--Lys--pNa, H-D-Val-Phe-Lys-pNa] | 126
NCCCC[C@H](NC(=O)OCc1ccccc1)C(=O)Nc1ccc([N+](=O)[O-])cc1 [Z--L--Lys--pNa, Z-L-Lysine-p-Nitroanilide] | 180
CC(C)C[C@H](NC(=O)[C@H](N)C(C)C)C(=O)N[C@@H](CCCCN)C(=O)Nc1ccc([N+](=O)[O-])cc1 [HD--Val--Leu--Lys--pNa, D-Val-Leu-Lys-pNA] | 200

— US5707620A (priority 1995, dated 1998)
